This is an account of results in patent US20030211470A1.

The target in this test is HIV-1IIIB gp120/gp41 stably expressed on CHO cells (HIV-1 IIIB). Description: cell-based or functional assay.

“CD4-gamma2 chimeric heavy chain homodimer (Fc fusion)” registered a Relative Potency (mass), relative to sCD4 of 2.3 fold and a Relative Potency (molarity), relative to sCD4 of 5 fold.
